A mixed list of measured activities; the numbers were collected in NIAID ChemDB.

Common to all: host cell toxicity; cell line: VERO; measure: CC50

CCn is the concentration with n% toxicity to the cells.

smiles	method	value
COc1ccc(C(F)(F)F)cc1NCc1cnc2nc(N)nc(N)c2c1C		1.03 µg/mL
CSc1nc2n(C/C=C\CO)nc(-c3ccccc3)c(=O)n2n1		530 µM
COc1ccc(OC)c(NCc2cnc3nc(N)nc(N)c3c2C)c1		717 µg/mL
CN1c2c(-c3ccccc3)nn(CC(=O)N/N=C/c3ccccc3Br)c2-c2ccccc2S1(=O)=O		>100 µM
COc1ccc(/C=N/Nc2cc(C)nc3ccc(C4CCCCC4)cc23)c2ccccc12		13.1 µg/mL
COc1cc(/C=C/C(=O)NCCc2ccc(O)cc2)ccc1O		>102 µg/mL
Nc1nc(=O)n([C@H]2C[C@H](O)[C@@H](CO)O2)cc1C#Cc1ccc2c3cccc4cccc(c5cccc1c52)c43	MTT	>20 µM
COc1cc2c3c(cc4ccccc4c3c1OC)N(C)C(=O)C2=O		>102 µg/mL
Cc1nc2n(CCO)nc(-c3ccccc3)c(=O)n2n1		1000 µM
CCOC(=O)c1c(Br)c(-c2ccccc2)n(COCCO)c1-c1ccccc1		64 µM
NNC(=O)CN1c2c(-c3ccccc3)n[nH]c2-c2ccccc2S1(=O)=O		>100 µM
O=C(NCCNC1=CC(=O)c2nc3ccccc3c3ccnc1c23)c1cnccn1		>25 µM
O=c1[nH]c(=O)n([C@H]2C[C@H](O)[C@@H](CO)O2)cc1C#CC#Cc1ccc2c3cccc4cccc(c5cccc1c52)c43	MTT	>20 µM
Cc1c(C(=O)NC(C)(C)C)[n+](=O)c2cc(Cl)c(Cl)cc2n1[O-]		>10 µg/mL
CCC1CCC2(CC1)SC(C)C(=O)N2NC(=O)Cc1csc2nc(-c3ccc(Cl)cc3)cn12		5.5 µg/mL
CC(C)c1ccc(C2(CN)CCC(=O)N2c2ccccc2)cc1	absorbance	33 µM
Cc1ccccc1NC(=O)c1c(C)n([O-])c2ccc(Cl)cc2[n+]1=O		>62.5 µg/mL
CSc1nc2n(COCCO)nc(-c3ccccc3)c(=O)n2n1		>500 µM
COc1ccc(/C=N/Nc2ccnc3ccc(C4CCCCC4)cc23)c2ccccc12		13.2 µg/mL
O=C(CN1c2c(-c3ccccc3)n[nH]c2-c2ccccc2S1(=O)=O)N/N=C/c1c(Cl)cccc1Cl		8 µM
COc1cc(/C=N/NC(=O)Cn2nc(-c3ccccc3)c3c2-c2ccccc2S(=O)(=O)N3C)cc(OC)c1OC		>100 µM
O=c1c(-c2ccccc2)nn(C/C=C\CO)c2ncnn12		>500 µM
Cc1c(-c2ccc(C(c3ccccc3)N3CCN(C)CC3)cc2)c([N+](=O)[O-])cc2c(=O)c(C(=O)O)cn(C3CC3)c12		109 µM
Cc1ccc(N2C(=O)CCC2(CN)c2ccccc2OCc2ccccc2)cc1	absorbance	>100 µM
O=C(O)CC1S/C(=N\N=C\c2ccc(Cl)cc2)N(c2ccccc2)C1=O		2000 µM
O=[N+]([O-])c1cn2c(n1)S(=O)CC(OCc1ccc(OCc3ccccc3)cc1)C2		63 µM
CCOc1ccc2c(N/N=C/c3ccc(N(CC)CC)cc3)cc(C)nc2c1		6.2 µg/mL
O=c1[nH]c(=O)n([C@@H]2O[C@H](CO)[C@@H](O)[C@@H]2O)cc1C#CC#Cc1ccc2c3cccc4cccc(c5cccc1c52)c43	MTT	>20 µM
CC(C)Oc1ccc(C2(C#N)CCC(=O)N2c2ccccc2)cc1	absorbance	47.6 µM
COC1=CC(=O)c2nc3ccccc3c3ccnc1c23		10.7 µM
O=C(CN1c2c(-c3ccccc3)n[nH]c2-c2ccccc2S1(=O)=O)N/N=C/c1cccc(Br)c1		12.2 µM
CC(=O)OCCOCn1c(-c2ccccc2)c(Br)c(-c2ccccc2)c1-c1ccccc1		16 µM
COc1ccc2c(N/N=C/c3ccc(OC)c4ccccc34)ccnc2c1		7.2 µg/mL
OCCOCn1c(-c2ccccc2)c(Br)c(-c2ccccc2)c1-c1ccccc1		15 µM
CC(C)(C)OC(=O)NCCNC1=CC(=O)c2nc3ccccc3c3ccnc1c23		>25 µM
Cc1nc2n(CCCCO)cc(-c3ccccc3)c(=O)n2n1		>930 µM
Cc1c(N2CCC3(CC2)OCCO3)c([N+](=O)[O-])cc2c(=O)c(C(=O)O)cn(-c3ccc(F)cc3F)c12		125 µM
CCC1CCC2(CC1)SCC(=O)N2NC(=O)Cc1csc2nc(-c3ccccc3)cn12		>10 µg/mL
CCOC(=O)c1c(Cl)c(-c2ccccc2)n(COCCOC(C)=O)c1C		82 µM
CCCCCCCCCCCCCC(=O)N[C@H](C)C(=O)N1C[C@@H](O)C[C@H]1C(=O)N[C@@H](CC(C)C)C(=O)N[C@H](C(=O)N[C@@H](CCC(N)=O)C(=O)N[C@@H](CC(C)C)C(=O)OC)C(C)C		48 µM
O=c1[nH]c(=O)n([C@H]2C[C@H](O)[C@@H](CO)O2)cc1-n1cc(-c2ccc3c4cccc5cccc(c6cccc2c63)c54)nn1	MTT	>20 µM
COC(=O)[C@H](CC(C)C)NC(=O)[C@H](CCC(N)=O)NC(=O)[C@@H](NC(=O)[C@H](CC(C)C)NC(=O)[C@@H]1C[C@H](O)CN1C(=O)C(C)(C)NC(=O)CCCCCCCCCCCCCCCO)C(C)C		>43 µM
CCCCc1ccc2nc(C)cc(N/N=C/c3ccc(OC)c4ccccc34)c2c1		9.8 µg/mL
Cc1ccc(NC(C#N)c2ccccc2OCc2ccccc2)cc1	absorbance	23.7 µM
Cc1c(N2CCN(Cc3ccc4c(c3)OCO4)CC2)c([N+](=O)[O-])cc2c(=O)c(C(=O)O)cn(C3CC3)c12		123 µM
COc1cc(/C=N/N=C2\SC(CC(=O)O)C(=O)N2c2ccccc2)cc(OC)c1OC		2000 µM
CCOc1ccc2c(N/N=C/c3ccc(N(CC)CC)cc3)ccnc2c1		6.4 µg/mL
COc1ccc(/C=N/NC(=O)Cn2nc(-c3ccccc3)c3c2-c2ccccc2S(=O)(=O)N3C)c(OC)c1		>100 µM
COc1ccc(C)cc1NCc1cnc2nc(N)nc(N)c2c1C		471 µg/mL
CCOC(=O)CCSC1=CC(=O)c2nc3ccccc3c3ccnc1c23		5.8 µM
O=C(CN1c2c(-c3ccccc3)n[nH]c2-c2ccccc2S1(=O)=O)N/N=C/c1ccc(Cl)cc1Cl		19.1 µM
O=c1c(-c2ccccc2)nn(COCCO)c2ncnn12		500 µM
CC(=O)OCCOCn1c(-c2ccccc2)c(N)c(C#N)c1-c1ccccc1		>300 µM
CCCCCCCCCC(=O)NC(C)(C)C(=O)N1C[C@@H](O)C[C@H]1C(=O)N[C@@H](CC(C)C)C(=O)N[C@H](C(=O)N[C@@H](CCC(N)=O)C(=O)N[C@@H](CC(C)C)C(=O)OC)C(C)C		59 µM
CN1c2c(-c3ccccc3)nn(CC(=O)N/N=C/c3ccc(Cl)cc3)c2-c2ccccc2S1(=O)=O		20.5 µM
O=C1C=C(NCCO)c2nccc3c2c1nc1ccccc13		12.7 µM
CN1CC(OCc2ccc(OC(F)(F)F)cc2)Cn2nc([N+](=O)[O-])cc21		>128 µM
CC1CCC2(CC1)SC(C)C(=O)N2NC(=O)Cc1csc2nc(-c3ccccc3)cn12		>10 µg/mL
COc1cc(OC)cc(N(C)Cc2cnc3nc(N)nc(N)c3c2C)c1		222 µg/mL
O=C(CN1c2c(-c3ccccc3)n[nH]c2-c2ccccc2S1(=O)=O)N/N=C/c1cccc(Cl)c1		13.2 µM
CN(C)c1ccc(/C=N/N=C2\SC(CC(=O)O)C(=O)N2c2ccccc2)cc1		1000 µM
O=[N+]([O-])c1cc(-c2ccccc2)n(COCCO)c1-c1ccccc1		46 µM
NC1=CC(=O)c2nc3ccccc3c3ccnc1c23		23.5 µM
N#CC(NCc1ccc(C=O)cc1)c1ccccc1	absorbance	69.6 µM
CCCCCCCCCCCCCCCC(=O)NC(C)(C)C(=O)N1C[C@@H](O)C[C@H]1C(=O)N[C@@H](CC(C)C)C(=O)N[C@H](C(=O)N[C@@H](CCC(N)=O)C(=O)N[C@@H](CC(C)C)C(=O)OC)C(C)C		21 µM
CCCCOc1ccc2nccc(NN)c2c1		7.77 µg/mL
Cc1c(N2CCc3ccccc3C2C(=O)NC(C)(C)C)c([N+](=O)[O-])cc2c(=O)c(C(=O)O)cn(C3CC3)c12		121 µM
CC(=O)CCCCCCCCCCCc1ccc2c(c1)OCO2		>102 µg/mL
CCCCCCCCSC1=CC(=O)c2nc3ccccc3c(C)c2C1=O		4.9 µM
C=C[C@]1(C)C2=C3c4c([nH]c5cccc(c45)C(C)(C)[C@H]3C[C@H]1Cl)C(C)(C)C(C#N)=C2	MTS	40.8 µM
CC/C=C/C/C=C/C/C=C/CCCCCCCC(=O)NC(C)(C)C(=O)N1C[C@@H](O)C[C@H]1C(=O)N[C@@H](CC(C)C)C(=O)N[C@H](C(=O)N[C@@H](CCC(N)=O)C(=O)N[C@@H](CC(C)C)C(=O)OC)C(C)C		>42 µM
O=[N+]([O-])c1cc2n(n1)CC(OCc1ccc(OCc3ccccc3)cc1)CO2		82 µM
O=C(CN1c2c(-c3ccccc3)n[nH]c2-c2ccccc2S1(=O)=O)N/N=C/c1ccc(Cl)cc1		14.2 µM
NC(=O)NO		1000 µM
O=[N+]([O-])c1cn2c(n1)S(=O)CC(OCc1ccc(OC(F)(F)F)cc1)C2		>128 µM
COc1ccc(/C=N/NC(=O)Cn2nc(-c3ccccc3)c3c2-c2ccccc2S(=O)(=O)N3C)c(OC)c1OC		19.6 µM
O=c1c(-c2ccccc2)nn(CCCCO)c2ncnn12		1130 µM
O=C(O)CC1S/C(=N\N=C\c2ccc(F)cc2)N(c2ccccc2)C1=O		2000 µM

Repeating the first 12 entries:

smiles,method,value
COc1ccc(C(F)(F)F)cc1NCc1cnc2nc(N)nc(N)c2c1C,,1.03 µg/mL
CSc1nc2n(C/C=C\CO)nc(-c3ccccc3)c(=O)n2n1,,530 µM
COc1ccc(OC)c(NCc2cnc3nc(N)nc(N)c3c2C)c1,,717 µg/mL
CN1c2c(-c3ccccc3)nn(CC(=O)N/N=C/c3ccccc3Br)c2-c2ccccc2S1(=O)=O,,>100 µM
COc1ccc(/C=N/Nc2cc(C)nc3ccc(C4CCCCC4)cc23)c2ccccc12,,13.1 µg/mL
COc1cc(/C=C/C(=O)NCCc2ccc(O)cc2)ccc1O,,>102 µg/mL
Nc1nc(=O)n([C@H]2C[C@H](O)[C@@H](CO)O2)cc1C#Cc1ccc2c3cccc4cccc(c5cccc1c52)c43,MTT,>20 µM
COc1cc2c3c(cc4ccccc4c3c1OC)N(C)C(=O)C2=O,,>102 µg/mL
Cc1nc2n(CCO)nc(-c3ccccc3)c(=O)n2n1,,1000 µM
CCOC(=O)c1c(Br)c(-c2ccccc2)n(COCCO)c1-c1ccccc1,,64 µM
NNC(=O)CN1c2c(-c3ccccc3)n[nH]c2-c2ccccc2S1(=O)=O,,>100 µM
O=C(NCCNC1=CC(=O)c2nc3ccccc3c3ccnc1c23)c1cnccn1,,>25 µM

Neighbouring rows are from separate reports. An empty or dashed field is not shown.